Record: PubChem BioAssay AID624099 (ICCB-Longwood, 2012)
The whole screen tested about 21,000 reagents; below is an unselected part. In the full data, 497 (2.4%) were called active. 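Higher z means weaker E2 silencing; only reporter increases were scored, and knock-downs that hurt cell survival may mask genuine repressor factors.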 No sequences are given here.

Test: 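Human genes that papillomavirus E2 requires to repress the HPV18 LCR promoter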 (primary screen)
Cell system: human C33A cervical carcinoma cells (HPV-negative) stably expressing BPV1 E2 and an HPV18 LCR luciferase reporter
Reagents: siRNA pool against human genes, 40 nM
Timing: 72 h
Detection: 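HPV18 LCR reporter light per well, converted to plate-wise z-scores that exclude control wells, and averaged over triplicate plates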
Reading the numbers: mean z-score and z-score: higher = stronger reporter signal, weaker E2 silencing
Active means: 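Mean z ≥ 2 together with z ≥ 2 in two or more of the three replicates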

The first 2 entries, to show the layout:
Gene | mean z-score | z-score, replicate A | z-score, replicate B | z-score, replicate C | outcome
FLJ45684 (retired record) | 0.06 | 0.24 | -0.06 | 0 | inactive
HKDC1 | 0.14 | 0.16 | 0.26 | -0.01 | inactive

Results, repeating the preview:
Gene | mean z-score | z-score, replicate A | z-score, replicate B | z-score, replicate C | outcome
FLJ45684 (retired record) | 0.06 | 0.24 | -0.06 | 0 | inactive
HKDC1 | 0.14 | 0.16 | 0.26 | -0.01 | inactive
ADH5 | 0.77 | 0.67 | 0.52 | 1.13 | inactive
CCDC198 | -0.65 | 0.2 | -0.25 | -1.91 | inactive
NECAB1 | -0.77 | -1.11 | -0.59 | -0.63 | inactive
REG1B | 0.05 | -0.15 | 0.19 | 0.12 | inactive
RUBCN | -0.16 | -0.39 | -0.13 | 0.03 | inactive
PIH1D1 | 0.1 | -0.2 | 0.07 | 0.42 | inactive
LOC402282 (retired record) | -1.16 | -1.08 | -1.03 | -1.36 | inactive
PPP2R5C | 0.17 | 0.08 | 0.28 | 0.13 | inactive
RTN4R | 1.82 | 1.99 | 1.96 | 1.5 | inactive
GNG11 | 3.03 | 2.97 | 3.31 | 2.82 | active
GTF2E1 | -1.11 | -1.13 | -0.91 | -1.27 | inactive
TMEM25 | 3.29 | 3.41 | 3.8 | 2.64 | active
LOC388947 (retired record) | -0.42 | -0.63 | -0.15 | -0.48 | inactive
PDE5A | -1.14 | -1.04 | -1.14 | -1.23 | inactive
GRM2 | -1.95 | -1.99 | -1.9 | -1.96 | inactive
LINC01597 | 0.29 | 0.16 | 0.16 | 0.54 | inactive
UBE2QL1 | 0.15 | 0.29 | 0.29 | -0.14 | inactive
TMEM267 | 0.01 | 0.37 | -0.13 | -0.21 | inactive
PLPPR2 | -1.8 | -1.83 | -1.88 | -1.7 | inactive
KHDRBS2 | -0.98 | -0.88 | -1.1 | -0.95 | inactive
RPGRIP1 | -0.18 | -0.5 | -0.13 | 0.09 | inactive
LOC344227 (retired record) | 0.45 | 0.37 | 0.34 | 0.64 | inactive
LOC388794 (retired record) | 0.37 | 0.19 | 0.57 | 0.34 | inactive
CRKL | 1.18 | 1.71 | 0.69 | 1.14 | inactive
FBXW10 | 1.85 | 1.91 | 1.92 | 1.7 | inactive
XRCC6 | 0.13 | 0.24 | 0.26 | -0.12 | inactive
POLR2C | -4.71 | -5.05 | -4.62 | -4.47 | inactive
DHX8 | 0.03 | -0.04 | -0.12 | 0.25 | inactive
ZWINT | 0.23 | 1.2 | 0.08 | -0.58 | inactive
PLEKHM3 | -0.95 | -0.91 | -1.12 | -0.83 | inactive
FABP1 | 1.14 | 1.45 | 1.08 | 0.9 | inactive
LOC390466 (retired record) | -0.11 | -0.44 | 0.08 | 0.03 | inactive
NFKBIL1 | -0.49 | -0.2 | -0.39 | -0.89 | inactive
CCT8L2 | -0.7 | -0.11 | -0.75 | -1.24 | inactive
MS4A6E | -1.51 | -1.67 | -1.51 | -1.36 | inactive
FZD4 | -0.3 | -0.14 | -0.54 | -0.22 | inactive
TMPRSS4 | -0.99 | -1.02 | -0.9 | -1.04 | inactive
